Laboratory results published in publication PMC10081574, “Evaluation of Antiviral Activity of Gemcitabine Derivatives against Influenza Virus and Severe Acute Respiratory Syndrome Coronavirus 2” (ACS Infectious Diseases, 2023).

Tested on: MDCK cells
Settings: dog

NC(=O)c1ncn([C@@H]2O[C@H](CO)[C@@H](O)[C@H]2O)n1 [Ribavirin, reference compound]
CC10: >300.0 µM
